Anti-infective test results gathered from many reports (values: NIAID ChemDB through PubChem).

All rows: tests in culture; agent: Aspergillus niger

Conditions beyond the fields shown may differ between rows. Blank or dashed fields: not listed here.

SMILES	read by	strain or isolate	endpoint	result
O=C(O)CCNCC(=O)Nc1cccc2c1C(=O)c1ccccc1C2=O		VKM F-1119	MIC	>500 µg/mL
O=C(CSc1nnc(-c2ccc(N=Cc3cccs3)cc2)o1)Nc1ccc(Br)cc1	broth dilution	MTCC 282	MIC	1000 µg/mL
c1ccc(C2=NN(c3ccccc3)C(c3ccc(OCCCCCCCCOc4ccc(C5CC(c6ccccc6)=NN5c5ccccc5)cc4)cc3)C2)cc1	broth dilution		MIC	16 µg/mL
O=C(CSc1nnc(-c2ccc(N=Cc3cccs3)cc2)o1)Nc1ccc(F)cc1	broth dilution	MTCC 282	MIC	1000 µg/mL
COC(=O)[C@@H](NC(=O)c1ccccc1-c1cnc(C)[nH]1)[C@@H](C)O			MIC	50 µg/mL
OB(O)c1ccccc1	turbidity		MFC	500 µg/mL
O=C(CSc1nnc(-c2ccc(N=Cc3cccs3)cc2)o1)Nc1ccccc1Cl	broth dilution	MTCC 282	MIC	500 µg/mL
O=C(/C=C/c1ccc(OCCCOc2ccc(/C=C/C(=O)c3ccccc3)cc2)cc1)c1ccccc1	broth dilution		MIC	32 µg/mL
Cc1ccc(NC(=O)CSc2nnc(-c3ccc(N=Cc4cccs4)cc3)o2)c(C)c1	broth dilution	MTCC 282	MIC	250 µg/mL
CSCCC(NCC(=O)Nc1cccc2c1C(=O)c1ccccc1C2=O)C(=O)O		VKM F-1119	MIC	15.6 µg/mL
CCOC(=O)C1/C(=N/Nc2ccc([N+](=O)[O-])cc2[N+](=O)[O-])C=C(c2ccc3ccccc3c2)CC1c1ccc(Cl)cc1		Clinical isolates	MIC	6.25 µg/mL
Cc1cc(NC(=O)CCN2C(=O)S/C(=C\c3ccc(Cl)cc3)C2=O)ccc1Cl			MIC	25 µg/mL
COC(=O)[C@@H]1CCCN1C(=O)CNC(=O)[C@H](C)NC(=O)[C@@H]1CCCN1C(=O)c1ccccc1-c1cnc(C)[nH]1			MIC	12.5 µg/mL
Nc1scc2c1c(=O)oc1ccc3ccccc3c12	broth dilution		MIC	32 µg/mL
COc1cccc(NC(=O)CSc2nnc(-c3ccc(N=Cc4cccs4)cc3)o2)c1	broth dilution	MTCC 282	MIC	1000 µg/mL
O=C(/C=C/c1ccc(OCCOc2ccc(/C=C/C(=O)c3ccccc3)cc2)cc1)c1ccccc1	broth dilution		MIC	32 µg/mL
CCOC(=O)C1/C(=N/Nc2ccc([N+](=O)[O-])cc2[N+](=O)[O-])C=C(c2ccc3ccccc3c2)CC1c1ccc(Br)cc1		Clinical isolates	MIC	6.25 µg/mL
O=C(/C=C/c1ccc(OCCCCCOc2ccc(/C=C/C(=O)c3ccccc3)cc2)cc1)c1ccccc1	broth dilution		MIC	8 µg/mL
COC(=O)[C@H](Cc1c[nH]c2ccccc12)OC(=O)[C@H](Cc1cnc[nH]1)NC(=O)COc1c(Br)c(=O)oc2ccccc12			MIC	12.5 µg/mL
O=C(CNC(CC1C=CC1)C(=O)O)Nc1cccc2c1C(=O)c1ccccc1C2=O		VKM F-1119	MIC	31.2 µg/mL
Cc1c(Cl)cccc1NC(=O)CCN1C(=O)S/C(=C\c2ccc(O)cc2O)C1=O			MIC	50 µg/mL
COC(=O)[C@@H](Cc1ccccc1)NC(=O)CNC(=O)[C@H](Cc1ccccc1)NC(=O)c1ccccc1-c1cnc(C)[nH]1			MIC	25 µg/mL
N#CSc1ccc2nc(NC(=O)CN3C(=O)S/C(=C/c4ccc(O)cc4)C3=O)sc2c1	broth dilution / visual reading	MTCC 282	MIC	1000 µg/mL
CC(NCC(=O)Nc1cccc2c1C(=O)c1ccccc1C2=O)C(=O)O		VKM F-1119	MIC	31.2 µg/mL
N#CSc1ccc2nc(N)sc2c1	broth dilution / visual reading	MTCC 282	MIC	500 µg/mL
Cc1ccc(NC(=O)CCN2C(=O)S/C(=C\c3ccccc3F)C2=O)c(Cl)c1			MIC	12.5 µg/mL
O=C(/C=C/c1ccc(OCCCCCCCCOc2ccc(/C=C/C(=O)c3ccccc3)cc2)cc1)c1ccccc1	broth dilution		MIC	16 µg/mL
COC(=O)[C@H](Cc1cc2ccccc2[nH]1)OC(=O)[C@H](C)NC(=O)[C@H](Cc1cc2ccccc2[nH]1)NC(=O)COc1cc(=O)oc2ccccc12			MIC	12.5 µg/mL
O=C(CSc1nnc(-c2ccc(N=Cc3cccs3)cc2)o1)Nc1ccc(Cl)cc1	broth dilution	MTCC 282	MIC	250 µg/mL
OB1OC(N2CCOCC2)c2ccccc21	turbidity		MFC	62.5 µg/mL
c1ccc(C2=NN(c3ccccc3)C(c3ccc(OCCCCCOc4ccc(C5CN(c6ccccc6)N=C5c5ccccc5)cc4)cc3)C2)cc1	broth dilution		MIC	32 µg/mL
O=C(CCN1C(=O)S/C(=C\c2ccccc2Br)C1=O)Nc1cccc(O)c1			MIC	12.5 µg/mL
C[C@@H](c1ncncc1F)[C@](O)(Cn1cncn1)c1ccc(F)cc1F	broth dilution	27	MIC	1 µg/mL
Cc1ccc(C)c(/C=C2\SC(=O)N(CCC(=O)Nc3ccccc3O)C2=O)c1			MIC	25 µg/mL
O=C(/C=C/c1ccc(OCCCCCCOc2ccc(/C=C/C(=O)c3ccccc3)cc2)cc1)c1ccccc1	broth dilution		MIC	8 µg/mL
OB(O)c1c(F)cc(F)cc1F	turbidity		MFC	250 µg/mL
Cc1ccc(Cl)c(NC(=O)CCN2C(=O)S/C(=C\c3cccc(O)c3)C2=O)c1			MIC	25 µg/mL
CCOC(=O)C1/C(=N/Nc2ccc([N+](=O)[O-])cc2[N+](=O)[O-])C=C(c2ccc3ccccc3c2)CC1c1ccc(F)cc1		Clinical isolates	MIC	6.25 µg/mL
CN[C@H](CC(C)C)C(=O)N[C@H]1C(=O)N[C@@H](CC(N)=O)C(=O)N[C@H]2C(=O)N[C@H]3C(=O)N[C@H](C(=O)N[C@H](C(=O)O)c4cc(O)cc(O)c4-c4cc3ccc4O)[C@H](O)c3ccc(c(Cl)c3)Oc3cc2cc(c3O[C@@H]2O[C@H](CO)[C@@H](O)[C@H](O)[C@H]2O[C@H]2C[C@](C)(N)[C@H](O)[C@H](C)O2)Oc2ccc(cc2Cl)[C@H]1O		VKM F-1119	MIC	31.2 µg/mL
COC(=O)[C@@H]1CCCN1C(=O)COc1c(Br)c(=O)oc2ccccc12			MIC	12.5 µg/mL
CCOC(=O)C1/C(=N/Nc2ccc([N+](=O)[O-])cc2[N+](=O)[O-])C=C(c2ccc3ccccc3c2)CC1c1ccc(C)cc1		Clinical isolates	MIC	25 µg/mL
c1ccc(C2=NN(c3ccccc3)C(c3ccc(OCCOc4ccc(C5CC(c6ccccc6)=NN5c5ccccc5)cc4)cc3)C2)cc1	broth dilution		MIC	16 µg/mL
O=C(CCN1C(=O)S/C(=C\c2ccc(Cl)cc2)C1=O)Nc1ccccc1[N+](=O)[O-]			MIC	25 µg/mL
N#CSc1ccc2nc(NC(=O)CCl)sc2c1	broth dilution / visual reading	MTCC 282	MIC	500 µg/mL
CC(=O)c1ccc(B(O)O)cc1	turbidity		MIC	125 µg/mL

Again, the opening 6 rows:

SMILES	read by	strain or isolate	endpoint	result
O=C(O)CCNCC(=O)Nc1cccc2c1C(=O)c1ccccc1C2=O		VKM F-1119	MIC	>500 µg/mL
O=C(CSc1nnc(-c2ccc(N=Cc3cccs3)cc2)o1)Nc1ccc(Br)cc1	broth dilution	MTCC 282	MIC	1000 µg/mL
c1ccc(C2=NN(c3ccccc3)C(c3ccc(OCCCCCCCCOc4ccc(C5CC(c6ccccc6)=NN5c5ccccc5)cc4)cc3)C2)cc1	broth dilution		MIC	16 µg/mL
O=C(CSc1nnc(-c2ccc(N=Cc3cccs3)cc2)o1)Nc1ccc(F)cc1	broth dilution	MTCC 282	MIC	1000 µg/mL
COC(=O)[C@@H](NC(=O)c1ccccc1-c1cnc(C)[nH]1)[C@@H](C)O			MIC	50 µg/mL
OB(O)c1ccccc1	turbidity		MFC	500 µg/mL